Assay results: patent US12137687B2, “Method for inducing acquired resistance in a plant” (HEINRICH HEINE UNIVERSITAET DUESSELDORF, priority 2017, dated 2024)

Experiments:
[1] = Pip/NHP levels in Arabidopsis leaves after Psm inoculation (GC-MS); format: in vivo, Arabidopsis thaliana; conditions: for endogenous level in distant (2°) leaves: Col-0, 1° leaves Psm-inoculated; for endogenous level in Psm-inoculated (1°) leaves: Col-0
[2] = Pip/NHP accumulation in tobacco after Pseudomonas syringae pv. tabaci inoculation; conditions: tobacco cv Xanthi, 72 h
[3] = format: in vivo, Solanum lycopersicum; conditions: tomato cultivar M82; Phytophthora infestans strain D12.2; 48 h

SMILES | endogenous level in distant (2°) leaves ([1]; 24 hpi) | endogenous level in distant (2°) leaves ([1]; 72 hpi) | endogenous level in Psm-inoculated (1°) leaves ([1]; 24 hpi (maximum)) | endogenous level in Psm-inoculated (1°) leaves ([1]; 48 hpi) | endogenous level in Psm-inoculated leaves ([1]; both eds1 and pad4 mutants, 48 hpi) | endogenous level as share of the wild-type level ([1]; eds1 mutant, 24 hpi) | endogenous level in Psm-inoculated leaves ([1]; eds1 mutant, 24 hpi) | endogenous level in Psm-inoculated leaves ([1]; npr1 mutant, 24 hpi) | endogenous level as share of the wild-type level ([1]; pad4 mutant, 24 hpi) | endogenous level in Psm-inoculated leaves ([1]; pad4 mutant, 24 hpi) | endogenous level in Psm-inoculated leaves ([1]; sard4-5 mutant, 24 hpi) | endogenous level in Psm-inoculated leaves ([1]; sard4-5 mutant, 48 hpi) | endogenous level in Psm-inoculated leaves ([1]; sid2 mutant, 24 hpi) | endogenous level in Psm-inoculated leaves ([1]; sid2 mutant, 48 hpi) | peak value of accumulation in inoculated plants [2] | pathogen-induced accumulation in inoculated plants [3]
O=C(O)C1CCCCN1O (stereo not drawn) [NHP, 1-hydroxypiperidine-2-carboxylic acid] | ~0.15 μg g^−1 FW | 0.5 μg g^−1 FW | about 30 μg g^−1 FW | 16 μg g^−1 FW | about 0.15 μg g^−1 FW | 1.3% | 0.4 μg g^−1 FW | 56 μg g^−1 FW | 2.4% | 0.7 μg g^−1 FW | 0.3 μg g^−1 FW | 1.9 μg g^−1 FW | 119 μg g^−1 FW | 260 μg g^−1 FW | approximately 10 μg/g FW | > 4 μg/g FW
O=C(O)[C@@H]1CCCCN1 [Pip, (S)-piperidine-2-carboxylic acid, reference compound] | – | – | – | more than 100 μg g^−1 FW | – | – | – | – | – | – | – | – | – | – | – | > 20 μg/g FW
